Measured values from several laboratories, pooled; numbers as filed in NIAID ChemDB.

Shared fields: target-level tests; agent: Hepatitis C virus; target: NS5B polymerase; measure: IC50

ICn is the concentration giving n% inhibition. Neighbouring rows are from separate reports. a–b is a range or a potency band.

smiles,result
C[C@@]1(O)[C@H](O)[C@@H](CO)O[C@H]1n1cnc2c(=O)[nH]c(N)nc21,<100 µM
O=C(N[C@@H](Cc1c[nH]c2ccc(O)cc12)C(=O)O)c1ccc2c(c1)nc(-c1ccoc1)n2C1CCCC[C@H]1CCc1ccccc1,<1 µM
COC(=O)[C@H](C)NP(=O)(OC[C@H]1O[C@@H](n2ccc3c(=O)[nH]c(N)nc32)[C@](C)(O)[C@@H]1O)Oc1ccccc1,<100 µM
C[C@@]1(O)[C@H](O)[C@@H](CO)O[C@H]1n1cnc2c(=O)[nH]c(N)nc21,0.13 µM
O=C1/C(=C\c2ccc(Cl)cc2)SC(=S)N1NS(=O)(=O)c1ccccc1,0.54 µM
Cc1cc2c(cc1C(=O)N[C@@H](Cc1c[nH]c3ccc(OCC(=O)O)cc13)C(=O)O)nc(-c1ccoc1)n2C1CCCCC1,0.019 µM
C[C@@]1(O)[C@H](O)[C@@H](CO)O[C@H]1n1cnc2c(N)ncnc21,<100 µM
O=C1/C(=C\c2ccc3ccccc3c2)SC(=S)N1NS(=O)(=O)c1ccccc1,≤30 µM
O=C(O)c1cnn2c(C3CCCCC3)c(-c3ccoc3)cnc12,1–10 µM
O=C1/C(=C\c2ccc(F)cc2F)SC(=S)N1NS(=O)(=O)c1ccccc1,≤30 µM
O=C(O)/C=C/c1ccc(NC(=O)C2(NC(=O)c3ccc4c(c3)nc(-c3ccoc3)n4C3CCCCC3)CCC2)cc1,0.05 µM
NN1C(=O)/C(=C\c2ccc(Oc3ccccc3)cc2)SC1=S,>30 µM
N#Cc1c(Cl)cc(Cl)cc1COc1cccc(/C(O)=C/C(=O)C(=O)O)c1,0.05 µM
COC(=O)[C@H](C)NP(=O)(OC[C@H]1O[C@@H](n2ccc3c(N)nc(N)nc32)[C@](C)(O)[C@@H]1O)Oc1ccccc1,<100 µM
O=S(=O)(NN1C(=S)S/C(=C\c2ccc(Cl)c(Cl)c2)C1O)c1ccccc1,≤30 µM
CSc1nc(Nc2ccc(N3CCOCC3)cc2)cc(N2CCN(C(=O)OC(C)C)CC2)n1,<0.1 µg/mL

Repeating the first 2 entries:

smiles,result
C[C@@]1(O)[C@H](O)[C@@H](CO)O[C@H]1n1cnc2c(=O)[nH]c(N)nc21,<100 µM
O=C(N[C@@H](Cc1c[nH]c2ccc(O)cc12)C(=O)O)c1ccc2c(c1)nc(-c1ccoc1)n2C1CCCC[C@H]1CCc1ccccc1,<1 µM